Vif LAI: effect of single changes on growth against APOBEC3G

Data from the supplement of Langley et al. 2025, preprint, doi:10.1101/2025.10.20.683452.

Scanned stretch, residues 12 to 115 of Vif from HIV-1 LAI (a laboratory-adapted subtype B strain):
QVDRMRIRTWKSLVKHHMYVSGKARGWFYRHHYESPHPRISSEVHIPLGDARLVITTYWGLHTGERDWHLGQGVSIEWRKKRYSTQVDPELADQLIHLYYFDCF

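A pool of vif mutants was passaged twice, 72 h each, on SupT1 cells that express APOBEC3G. Each of three replicates was sequenced after round two and set against the merged round-one pool. Changes do not touch integrase, since the pol overlap was removed.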

Scale: log2 enrichment, wild type = 0; negative values mean that the variant was depleted. Each entry names the wild-type residue, its position and the residue put in its place. All changes here are to aspartate. The median of three replicates is given, with the replicates in brackets. Input reads are the counts in the merged round-one pool, before selection.

substitution,input reads,median score
V13D,464,-2.60 (-2.77 / -2.30 / -2.60)
M16D,276,-2.30 (-2.30 / -4.68 / -1.24)
R17D,262,3.81 (3.81 / -1.44 / 4.02)
I18D,465,-2.59 (-2.13 / -3.72 / -2.59)
R19D,41,0.98 (0.98 / 3.93 / 0.27)
T20D,1045,-1.94 (-2.32 / 0.64 / -1.94)
S23D,19,0.06 (2.75 / 0.06 / -0.52)
L24D,1106,-2.97 (-2.43 / -4.12 / -2.97)
H28D,936,-2.68 (-2.68 / -3.93 / -2.56)
M29D,768,-1.64 (-1.64 / 0.20 / -1.86)
Y30D,33,2.26 (0.37 / 2.55 / 2.26)
V31D,2954,-0.95 (-0.95 / 0.11 / -1.11)
S32D,928,0.68 (0.85 / 0.68 / -2.29)
G33D,556,-3.72 (-3.72 / -4.46 / -2.34)
A35D,823,0.98 (-0.16 / 0.98 / 1.46)
R36D,190,2.41 (0.92 / 3.92 / 2.41)
G37D,424,-0.81 (-0.81 / -2.00 / -0.58)
Y40D,32,0.44 (-0.91 / 2.06 / 0.44)
R41D,428,-2.63 (-2.63 / -3.71 / -0.98)
H42D,189,0.15 (4.32 / -0.92 / 0.15)
H43D,87,0.95 (0.95 / -1.17 / 4.37)
Y44D,516,-0.75 (-0.75 / 0.76 / -1.29)
E45D,517,-0.86 (-1.14 / 1.66 / -0.86)
S46D,954,-2.00 (-1.53 / -3.02 / -2.00)
H48D,68,1.08 (1.08 / -1.08 / 1.36)
R50D,310,-3.39 (-3.32 / -3.39 / -4.52)
I51D,392,-3.90 (-4.38 / -3.90 / -2.19)
S52D,342,-3.70 (-5.78 / -3.70 / -3.44)
E54D,490,-3.06 (-2.84 / -3.46 / -3.06)
I57D,695,-1.71 (0.07 / -2.41 / -1.71)
P58D,191,-0.18 (-0.18 / -1.26 / 4.08)
L59D,440,-4.56 (-4.56 / -4.62 / -2.52)
G60D,83,3.11 (5.21 / 3.11 / 2.20)
A62D,182,-0.50 (-0.50 / -0.92 / 1.86)
V65D,973,0.54 (-0.73 / 0.54 / 3.81)
I66D,385,-3.59 (-2.04 / -4.25 / -3.59)
T67D,434,-0.39 (-0.34 / -0.39 / -1.53)
T68D,1352,-1.06 (-3.25 / -0.69 / -1.06)
Y69D,159,3.74 (4.02 / -1.09 / 3.74)
W70D,2457,-1.41 (-1.41 / -3.39 / -0.31)
G71D,238,-0.78 (-0.73 / -2.42 / -0.78)
H73D,42,0.47 (0.72 / -1.61 / 0.47)
E76D,72,2.52 (2.52 / 5.00 / -0.32)
R77D,876,-2.29 (-2.29 / 0.40 / -2.70)
W79D,21,1.38 (1.38 / 6.12 / 1.20)
H80D,42,-0.01 (0.41 / -1.07 / -0.01)
L81D,146,0.97 (0.97 / -1.49 / 5.78)
G82D,414,-1.40 (-1.40 / -2.28 / -0.63)
G84D,150,-1.60 (-0.87 / -3.14 / -1.60)
V85D,384,-4.10 (-1.29 / -4.80 / -4.10)
S86D,995,-2.08 (-2.08 / -3.48 / -1.95)
I87D,1097,-3.69 (-3.77 / -2.98 / -3.69)
E88D,92,0.02 (0.02 / -0.61 / 0.69)
K91D,461,-0.82 (-2.13 / 0.32 / -0.82)
K92D,864,-1.80 (-1.80 / 1.41 / -2.43)
T96D,348,-4.21 (-4.21 / -5.50 / -3.43)
P100D,67,-3.86 (-3.43 / -3.86 / -3.89)
E101D,395,-1.43 (-1.43 / 1.36 / -2.75)
L102D,46,-2.91 (-2.91 / -3.33 / -1.78)
A103D,198,-3.12 (-1.27 / -3.84 / -3.12)
H108D,603,-1.07 (-0.99 / -2.12 / -1.07)
Y111D,24,-0.37 (-0.37 / -2.40 / 4.84)
F112D,430,-1.75 (-2.18 / -1.75 / 0.09)
F115D,298,-3.24 (-1.67 / -3.35 / -3.24)

Extract of 8 entries:

| substitution | input reads | median score |
|---|---|---|
| A103D | 198 | -3.12 (-1.27 / -3.84 / -3.12) |
| T20D | 1045 | -1.94 (-2.32 / 0.64 / -1.94) |
| K91D | 461 | -0.82 (-2.13 / 0.32 / -0.82) |
| V85D | 384 | -4.10 (-1.29 / -4.80 / -4.10) |
| E88D | 92 | 0.02 (0.02 / -0.61 / 0.69) |
| V31D | 2954 | -0.95 (-0.95 / 0.11 / -1.11) |
| P100D | 67 | -3.86 (-3.43 / -3.86 / -3.89) |
| W79D | 21 | 1.38 (1.38 / 6.12 / 1.20) |

Some changes are missing from the data or left out. The authors note that some positive scores may be noise, and some enriched variants failed when tested singly. The scan is noisy: the rank correlation of replicates is about 0.4 to 0.65, and variants with under about 50 input reads tend to read too high.